PubChem BioAssay AID624099, ICCB-Longwood – 2012
In all, the deposit lists about 21,000 reagents; below is a part drawn at random. In the full data, 497 (2.4%) are marked active. 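Higher z means weaker E2 silencing; only reporter increases were scored, and knock-downs that hurt cell survival may mask genuine repressor factors.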

Assay: 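Knock-downs relieving repression by E2 of an HPV18 LCR luciferase reporter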 (primary screen)
System: human C33A cervical carcinoma cells (HPV-negative) stably expressing BPV1 E2 and an HPV18 LCR luciferase reporter
Reagents: siRNA pool against human genes, 40 nM
Timing: 72 h
Detection: 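Per-well luciferase luminescence, z-scored on each plate against the plate mean and SD with control wells left out, then averaged across three replicate plates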
Reading the numbers: mean z-score and z-score: higher = stronger reporter signal, weaker E2 silencing
Hit rule: 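Hit if mean z-score reaches 2 and two or more of three replicate z-scores also reach 2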

Gene | PubChem SID | mean z-score | z-score, replicate A | z-score, replicate B | z-score, replicate C | Outcome
LOC387854 (retired record) (GeneID 387854) | SID134328354 | -0.14 | -0.38 | 0.11 | -0.13 | inactive
PDZD9 (GeneID 255762) | SID134322217 | -0.95 | -1.1 | -0.66 | -1.08 | inactive
RPS6 (GeneID 6194) | SID134309811 | -2.15 | -1.95 | -2.3 | -2.21 | inactive
ANAPC15 (GeneID 25906) | SID134323966 | 0.09 | 0.16 | 0.12 | -0.01 | inactive
LOC153134 (retired record) (GeneID 153134) | SID134326072 | 0.36 | 0.35 | 0.48 | 0.24 | inactive
LOC387939 (retired record) (GeneID 387939) | SID134328457 | -0.04 | -0.15 | 0.05 | -0.01 | inactive
LINC00701 (GeneID 399708) | SID134328190 | -0.4 | -0.22 | -0.61 | -0.38 | inactive
PDXDC2P-NPIPB14P (GeneID 283970) | SID134325439 | -0.05 | – | 0.13 | -0.24 | inactive
PIGP (GeneID 51227) | SID134317410 | -0.08 | 0.46 | -0.35 | -0.35 | inactive
LOC401544 (retired record) (GeneID 401544) | SID134328115 | -2.13 | -1.98 | -2.21 | -2.21 | inactive
PRAF2 (GeneID 11230) | SID134323446 | -1.58 | -1.28 | -1.87 | -1.58 | inactive
PDE6D (GeneID 5147) | SID134310387 | 0.08 | -0.35 | -0.27 | 0.86 | inactive
RGS4 (GeneID 5999) | SID134314594 | -0.07 | 0 | -0.2 | -0.03 | inactive
LINC00692 (GeneID 285326) | SID134325701 | 1.33 | 1.24 | 1.39 | 1.37 | inactive
LSS (GeneID 4047) | SID134313487 | 0.7 | 0.5 | 0.71 | 0.89 | inactive
FSTL3 (GeneID 10272) | SID134316394 | -0.42 | -0.52 | -0.58 | -0.16 | inactive
FLJ45966 (retired record) (GeneID 401120) | SID134329784 | -0.08 | -0.33 | -0.12 | 0.21 | inactive
NKX2-3 (GeneID 159296) | SID134320101 | 0.55 | 0.69 | 0.33 | 0.62 | inactive
EPCIP-AS1 (GeneID 54067) | SID134329957 | 2.83 | 3 | 2.78 | 2.71 | active
BIN3 (GeneID 55909) | SID134320122 | -1.31 | -1.45 | -1.44 | -1.04 | inactive
ZG16 (GeneID 653808) | SID134319723 | 1.71 | 1.71 | 1.91 | 1.52 | inactive
CDK1 (GeneID 983) | SID56478584 | -1.52 | -2.17 | -1.65 | -0.76 | inactive
MARCHF8 (GeneID 220972) | SID134312282 | 1.58 | 1.39 | 1.63 | 1.72 | inactive
PSEN1 (GeneID 5663) | SID134310708 | -0.64 | -0.81 | -0.85 | -0.25 | inactive
CFAP100 (GeneID 348807) | SID134322516 | 1.21 | 1.09 | 1.24 | 1.29 | inactive
TLCD4 (GeneID 148534) | SID134320692 | 0.82 | 1.92 | 0.31 | 0.22 | inactive
VWA2 (GeneID 340706) | SID134329268 | -0.37 | -0.36 | -0.34 | -0.41 | inactive
GNAI3 (GeneID 2773) | SID134310790 | 0.77 | 0.78 | 0.69 | 0.84 | inactive
GALNT18 (GeneID 374378) | SID134329275 | -0.31 | -0.18 | -0.39 | -0.35 | inactive
COL9A3 (GeneID 1299) | SID134315951 | 0.6 | 0.53 | 0.56 | 0.71 | inactive
LOC387686 (retired record) (GeneID 387686) | SID134328208 | 0.47 | 0.47 | 0.44 | 0.5 | inactive
ZCCHC12 (GeneID 170261) | SID134322350 | -0.4 | -0.5 | -0.24 | -0.45 | inactive
COL5A3 (GeneID 50509) | SID134317299 | 0 | 0.46 | -0.32 | -0.14 | inactive
C1orf226 (GeneID 400793) | SID134327055 | 0.23 | 0.32 | -0.14 | 0.52 | inactive
LINC01299 (GeneID 286186) | SID134328013 | 0.32 | 0.26 | 0.33 | 0.36 | inactive
LOC387823 (retired record) (GeneID 387823) | SID134328245 | 0.59 | 0.59 | 0.75 | 0.44 | inactive
NFKBIB (GeneID 4793) | SID134319782 | -0.75 | -0.81 | -0.85 | -0.59 | inactive
TFF1 (GeneID 7031) | SID134310051 | -0.32 | 0.02 | -0.57 | -0.42 | inactive
OPRD1 (GeneID 4985) | SID134311122 | -0.5 | -0.7 | -0.38 | -0.42 | inactive
IRX2-DT (GeneID 153571) | SID134321834 | 0.29 | 0.61 | 0.1 | 0.15 | inactive
LOC402247 (retired record) (GeneID 402247) | SID134327758 | -0.49 | -0.33 | -0.63 | -0.5 | inactive
TRIM2 (GeneID 23321) | SID134312081 | -1.21 | -1.25 | -1.29 | -1.09 | inactive
EPB41L4A (GeneID 64097) | SID134324925 | 0.26 | 0.27 | 0.15 | 0.37 | inactive

Next part; the last 2 above are carried over.
Gene | PubChem SID | mean z-score | z-score, replicate A | z-score, replicate B | z-score, replicate C | Outcome
TRIM2 (GeneID 23321) | SID134312081 | -1.21 | -1.25 | -1.29 | -1.09 | inactive
EPB41L4A (GeneID 64097) | SID134324925 | 0.26 | 0.27 | 0.15 | 0.37 | inactive
TUSC3 (GeneID 7991) | SID134322848 | 0.7 | 0.26 | 0.7 | 1.13 | inactive
TMED3 (GeneID 23423) | SID134312983 | -0.54 | -0.33 | -0.78 | -0.52 | inactive
LDOC1 (GeneID 23641) | SID134316732 | -0.08 | -0.02 | -0.1 | -0.13 | inactive
OSBPL7 (GeneID 114881) | SID134313999 | -0.38 | -0.56 | 0.05 | -0.63 | inactive
LOC400161 (retired record) (GeneID 400161) | SID134328463 | -0.81 | -0.66 | -0.75 | -1.01 | inactive
ARL6IP4 (GeneID 51329) | SID134324381 | 0.43 | 0.44 | 0.29 | 0.56 | inactive
HEATR1 (GeneID 55127) | SID134319954 | -1.05 | -0.74 | -0.77 | -1.63 | inactive
PAK1IP1 (GeneID 55003) | SID134324541 | -0.37 | -0.07 | -0.32 | -0.71 | inactive
LOC439938 (retired record) (GeneID 439938) | SID134321581 | 0.57 | 0.47 | 1.47 | -0.22 | inactive
CCDC110 (GeneID 256309) | SID134319962 | 0.22 | 0.34 | 0.22 | 0.12 | inactive
CRELD2 (GeneID 79174) | SID134315272 | 0.08 | -0.27 | 0.12 | 0.38 | inactive
MRPL9 (GeneID 65005) | SID134317722 | -0.35 | -0.71 | -0.4 | 0.07 | inactive
LPL (GeneID 4023) | SID134313811 | 0.98 | 1.25 | 0.84 | 0.84 | inactive
LOC400025 (retired record) (GeneID 400025) | SID134328352 | -0.05 | -0.15 | -0.21 | 0.22 | inactive
PATE1 (GeneID 160065) | SID134313725 | 0.57 | 0.34 | 0.83 | 0.52 | inactive
ZNF202 (GeneID 7753) | SID134311910 | 0.18 | 0.11 | -0.02 | 0.47 | inactive
EHD3 (GeneID 30845) | SID134310598 | -0.01 | 0.46 | -0.17 | -0.32 | inactive
WRAP53 (GeneID 55135) | SID134324753 | -2.27 | -2.15 | -2.22 | -2.43 | inactive
UNC13B (GeneID 10497) | SID134316550 | 0.48 | 0.34 | 0.83 | 0.28 | inactive
RASSF9 (GeneID 9182) | SID134316358 | 2.04 | 2.01 | 2.19 | 1.91 | active
CYSLTR2 (GeneID 57105) | SID134310923 | 0.22 | 0.3 | 0.17 | 0.18 | inactive
RIPK2 (GeneID 8767) | SID56478715 | 0.06 | 0.08 | 0.08 | 0.01 | inactive
PART1 (GeneID 25859) | SID134317607 | 0.73 | 0.6 | 0.77 | 0.81 | inactive
CCER1 (GeneID 196477) | SID134319819 | 0.32 | 0.5 | 0.13 | 0.35 | inactive
IGFL4 (GeneID 444882) | SID134328921 | -0.25 | -0.26 | -0.15 | -0.33 | inactive
IGFL4 (GeneID 444882) | SID134329821 | 0.31 | 1.16 | -0.16 | -0.06 | inactive
BMP15 (GeneID 9210) | SID134316321 | -0.07 | -0.08 | -0.16 | 0.02 | inactive
DCST1 (GeneID 149095) | SID134320719 | 1.37 | 0.17 | – | 0.46 | inactive
PLAT (GeneID 5327) | SID134311423 | -1.13 | -1.32 | -1.24 | -0.84 | inactive
ZACN (GeneID 353174) | SID134313969 | -1.2 | -1.5 | -1.07 | -1.03 | inactive
